Data as given in PubChem BioAssay AID504761 (Drosophila RNAi Screening Center, 2011).
In all, the deposit lists about 22,000 reagents; below is a random part of those with a known target gene and a result. In the full data, 116 (0.52%) were called active. 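Calls depend on retest data that are not deposited; infection was ranked per plate without normalising between plates; the unit of the infection score is not given.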 Entries without a mark were called inactive. Further read-outs or replicates are left out here. The record does not give: the amount of reagent, the time to read-out.

- Screen: 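Fly genes whose silencing reduces dengue virus type 2 infection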 (primary screen)
- Cell system: D.Mel-2 cells from Drosophila
- Reagent: long dsRNA against Drosophila genes
- Challenge: infection with dengue virus type 2; dose and infection time not stated
- Read-out: 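Cells stained for dengue envelope protein and imaged; percent of infected cells per well on duplicate plates, ranked by infection, with stained nuclei counted for cell number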
- Reading the numbers: infection score: higher = more virus-infected cells
- Hit rule: 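Low infection ranks in the two replicates (chance level up to 0.065) followed by a retest with a 1.5-fold or larger significant decrease, p below 0.05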
- Meaning of the calls: active = confirmed: knock-down lowers infection; inactive = not picked or not confirmed

CG4613 [DRSC10435] → infection score, replicate 1: 1.31
CG4613 [DRSC25652] → infection score, replicate 1: 8.58
CG31650 [DRSC03140] → infection score, replicate 1: 1.22
CG31650 [DRSC28972] → infection score, replicate 1: 0.54
stau [DRSC07698] → infection score, replicate 1: 7.32
unc [DRSC20511] → infection score, replicate 1: 6.34
unc [DRSC27962] → infection score, replicate 1: 11.9
CG31988 [DRSC22491] → infection score, replicate 1: 2.29
Prosbeta2 [DRSC11257] → infection score, replicate 1: 0.19
trsn [DRSC06078] → infection score, replicate 1: 8.99
CG30411 [DRSC04004] → infection score, replicate 1: 1.4
CG30411 [DRSC25684] → infection score, replicate 1: 5.29
CG14687 [DRSC14910] → infection score, replicate 1: 0.92
CG14687 [DRSC29639] → infection score, replicate 1: 19.2
CG14662 [DRSC12248] → infection score, replicate 1: 5.22

Look-ups from above:
Result of unc [DRSC20511] in “infection score, replicate 1”: 6.34
Under “infection score, replicate 1”, CG31988 [DRSC22491] reads 2.29
Value for unc [DRSC27962] in “infection score, replicate 1”: 11.9

Next entries follow:
Gr22a [DRSC22283] → infection score, replicate 1: 1.72
Gr22a [DRSC26809] → infection score, replicate 1: 11.2
CG13227 [DRSC06347] → infection score, replicate 1: 3.76
CG13227 [DRSC27529] → infection score, replicate 1: 11
Ccn [DRSC09504] → infection score, replicate 1: 4.52
Ccn [DRSC09506] → infection score, replicate 1: 0.35
Ccn [DRSC10062] → infection score, replicate 1: 14.9
Ccn [DRSC10063] → infection score, replicate 1: 10.2
